The test system of the data set is O=C(O)CN(CCN(CC(=O)O)CC(=O)O)CC(=O)O. The data set can be described thus: purified protein, by the assay type. The following applies: other: dUTP hydrolysis, 300 µM EDTA, no Mg^2+, 20 °C, pH 7.5.

On to “mtDUT (Mycobacterium tuberculosis H37Rv)”, for which the Michaelis constant (Km) is 10.04 ± 0.50 µM and the kcat stood at 0.71 s⁻¹.
